Compound potency records, mixed from different reports. Data source: NIAID ChemDB in PubChem.

All rows: tests in culture; species: HIV-1; endpoint: EC50

Neighbouring rows are from separate reports. ECn: concentration that inhibits the pathogen or its effect by n%.

Cc1cn([C@H]2C[C@H](N=[N+]=[N-])[C@@H](CO)O2)c(=O)[nH]c1=O ; strain: IIIB ; cells: C8166 ; method: cytopathic effect / syncytia ; value: 0.0071 µM
O=C1N(Cc2ccccn2)[C@H](Cc2ccccc2)[C@H](O)[C@@H](O)[C@@H](Cc2ccccc2)N1Cc1ccccn1 ; strain: RF ; cells: MT-2 ; method: hybridisation ; value: <49 µM
O=C(CC1(O)C(=O)Nc2ccccc21)c1ccccc1 ; strain: IIIB ; cells: C8166 ; method: cytopathic effect / syncytia ; value: 260 µM
CCCOc1ccc(Cc2cc(C3CCN(C[C@H]4CN([C@@H](C(=O)O)[C@H](C)CC)C[C@@H]4c4cccc(F)c4)CC3)n(CC)n2)cc1 ; strain: BaL ; cells: HeLa ; method: β-galactosidase ; value: <0.0012 µM
COc1ccc(CN2C(=O)N(Cc3ccc(OC)cc3)[C@H](Cc3ccccc3)[C@H](O)[C@@H](O)[C@H]2Cc2ccccc2)cc1 ; strain: RF ; cells: MT-2 ; method: hybridisation ; value: <7.6 µM
COC(=O)c1ccc(/C=C(C)/C=C2\CO[C@@H](c3oc(OC)c(C)c(=O)c3C)C2)cc1 ; strain: LAI ; cells: PBMC + LC5-RIC ; method: fluorescence ; value: 4.08 µM
CC[C@@H](C)[C@H](C(=O)O)N1C[C@H](CN2CCC(c3cc(Cc4ccc(OCc5ccccc5)cc4)nn3CC)CC2)[C@@H](c2cccc(F)c2)C1 ; strain: BaL ; cells: HeLa ; method: β-galactosidase ; value: <0.0037 µM
CCOC(=O)c1csc(N2N=C(c3ccccc3)CC2c2ccc(Cl)cc2)n1 ; strain: IIIB ; cells: MT-4 ; method: MTT / absorbance ; value: >11.51 µM
Cc1cn([C@H]2C[C@H](N=[N+]=[N-])[C@@H](CO)O2)c(=O)[nH]c1=O ; strain: SCV 4005 ; cells: MT-4 ; method: antigen ; value: 0.013 µM
COc1oc([C@H]2C/C(=C/C(C)=C/c3ccccc3Cl)CO2)c(C)c(=O)c1C ; strain: LAI ; cells: PBMC + LC5-RIC ; method: fluorescence ; value: 0.561 µM
O=C(CC1(O)C(=O)Nc2ccc(Br)cc21)c1cccc(Br)c1 ; strain: IIIB ; cells: C8166 ; method: cytopathic effect / syncytia ; value: 38.96 µM
COc1oc([C@H]2C/C(=C/C(C)=C/c3ccc(F)cc3F)CO2)c(C)c(=O)c1C ; strain: LAI ; cells: PBMC + LC5-RIC ; method: fluorescence ; value: 0.0143 µM
O=C(N/N=C/c1ccc(Cl)cc1O)c1csc(N2N=C(c3ccccc3)CC2c2ccc(Cl)cc2)n1 ; strain: IIIB ; cells: MT-4 ; method: MTT / absorbance ; value: 0.45 µM
CCn1nc(Cc2cccc3ccccc23)cc1C1CCN(C[C@H]2CN([C@@H](C(=O)O)C(C)(C)C)C[C@@H]2c2cccc(F)c2)CC1 ; strain: BaL ; conditions: 50% human serum ; cells: HeLa ; method: β-galactosidase ; value: <0.011 µM
c1cc(CN2CCCNCCNCCCNCC2)ccc1CN1CCCNCCNCCCNCC1 ; strain: RF X4 ; cells: PBMC ; method: antigen ; value: 0.005 µg/mL
CCCCCCC#CC#CCCCCCCCCCCCCCc1ccco1 ; strain: MC99 deltaTAT/REV ; cells: 1A2 ; method: syncytia / β-galactosidase ; value: 43.3 µg/mL
COc1cc(/C=N/NC(=O)c2csc(N3N=C(c4ccccc4)CC3c3ccc(Cl)cc3)n2)ccc1O ; strain: IIIB ; cells: MT-4 ; method: MTT / absorbance ; value: >60.1 µM
Cc1c(N)nc([C@H](CC(N)=O)NC[C@H](N)C(N)=O)nc1C(=O)N[C@H](C(=O)N[C@H](C)[C@@H](O)[C@H](C)C(=O)N[C@H](C(=O)NCCc1nc(-c2nc(C(=O)NCCC[S+](C)C)cs2)cs1)[C@@H](C)O)C(O[C@@H]1O[C@@H](CO)[C@@H](O)[C@H](O)[C@@H]1O[C@H]1O[C@H](CO)[C@@H](O)[C@H](OC(N)=O)[C@@H]1O)c1cnc[nH]1 ; strain: BaL ; cells: PBLC ; method: XTT / p24 ; value: ~0.3 µg/mL
CCc1c(C(=O)c2cc(C)cc(C)c2)n(CC2CC=CC2)c(=O)[nH]c1=O ; cells: CEM + CEM-SS ; method: cytopathic effect / XTT ; value: 0.002 µM
CCCOCc1cn([C@@H]2C[C@H](N=[N+]=[N-])[C@@H](CO)O2)c(=O)[nH]c1=O ; strain: IIIB ; cells: MT-4 ; method: ELISA / antigen ; value: >100 µM
CCn1nc(Cc2ccc3c(c2)OCO3)cc1C1CCN(C[C@H]2CN([C@@H](C(=O)O)C(C)(C)C)C[C@@H]2c2cccc(F)c2)CC1 ; strain: BaL ; conditions: 50% human serum ; cells: HeLa ; method: β-galactosidase ; value: <0.033 µM
COc1ccc(/C=C(C)/C=C2\CO[C@@H](c3oc(OC)c(C)c(=O)c3C)C2)cc1OC ; strain: LAI ; cells: PBMC + LC5-RIC ; method: fluorescence ; value: 0.0487 µM
[N-]=[N+]=N[C@H]1C[C@H](n2cc(CO)c(=O)[nH]c2=O)O[C@@H]1CO ; strain: IIIB ; cells: MT-4 ; method: ELISA / antigen ; value: >500 µM
Fc1cccc(F)c1C1SCc2nc3ccccc3n21 ; strain: RF ; cells: CEM + CEM-SS ; method: cytopathic effect / XTT ; value: 1.28 µM
O=C(CC1(O)C(=O)Nc2ccc(Cl)cc21)c1ccc(F)cc1 ; strain: IIIB ; cells: C8166 ; method: cytopathic effect / syncytia ; value: 59.58 µM
CCCCCOCc1cn([C@@H]2C[C@H](N=[N+]=[N-])[C@@H](CO)O2)c(=O)[nH]c1=O ; strain: IIIB ; cells: MT-4 ; method: ELISA / antigen ; value: 73 µM
Cc1cn([C@H]2C[C@H](N=[N+]=[N-])[C@@H](CO)O2)c(=O)[nH]c1=O ; strain: MC99 deltaTAT/REV ; cells: 1A2 ; method: syncytia / β-galactosidase ; value: 0.00135 µg/mL
COc1cc(/C=N/NC(=O)c2csc(N3N=C(c4ccccc4)CC3c3ccc(Cl)cc3)n2)ccc1OCc1ccccc1 ; strain: IIIB ; cells: MT-4 ; method: MTT / absorbance ; value: >125 µM
O=C(CC1(O)C(=O)Nc2ccc(Br)cc21)c1ccccc1Cl ; strain: IIIB ; cells: C8166 ; method: cytopathic effect / syncytia ; value: 10.79 µM
CCCCCN1C(=O)N(CCCCC)[C@H](Cc2ccccc2)[C@H](O)[C@@H](O)[C@H]1Cc1ccccc1 ; strain: RF ; cells: MT-2 ; method: hybridisation ; value: <1.5 µM
CSc1ccccc1C1CCCN1C(=O)C(CC(C)C)NC(=O)NCc1ccc(N)cc1 ; strain: IIIB ; cells: MT-4 ; method: ATP / luminescence ; value: 13 µM
Cc1ccc(CN2C(=O)N(Cc3ccc(C)cc3)[C@H](Cc3ccccc3)[C@H](O)[C@@H](O)[C@H]2Cc2ccccc2)cc1 ; strain: RF ; cells: MT-2 ; method: hybridisation ; value: <4.3 µM
COc1oc([C@H]2C/C(=C/C(C)=C/c3cccc(C(F)(F)F)c3)CO2)c(C)c(=O)c1C ; strain: LAI ; cells: PBMC + LC5-RIC ; method: fluorescence ; value: 0.0401 µM
O=C(N/N=C/c1ccccc1[N+](=O)[O-])c1csc(N2N=C(c3ccccc3)CC2c2ccc(Cl)cc2)n1 ; strain: IIIB ; cells: MT-4 ; method: MTT / absorbance ; value: >125 µM
Cc1cn([C@H]2C[C@H](N=[N+]=[N-])[C@@H](CO)O2)c(=O)[nH]c1=O ; strain: IIIB ; cells: MT-4 ; method: ELISA / antigen ; value: 0.04 µM
O=C(O)CCCC#CC#CCCCCCCCCCCCCCc1ccco1 ; strain: MC99 deltaTAT/REV ; cells: 1A2 ; method: syncytia / β-galactosidase ; value: 8.9 µg/mL
C=C1COC(c2oc(OC)c(C)c(=O)c2C)C1 ; strain: LAI ; cells: PBMC + LC5-RIC ; method: fluorescence ; value: >10 µM

The last 4 rows once more:

{"compound": "O=C(N/N=C/c1ccccc1[N+](=O)[O-])c1csc(N2N=C(c3ccccc3)CC2c2ccc(Cl)cc2)n1", "strain": "IIIB", "cells": "MT-4", "method": "MTT / absorbance", "value": ">125 µM"}
{"compound": "Cc1cn([C@H]2C[C@H](N=[N+]=[N-])[C@@H](CO)O2)c(=O)[nH]c1=O", "strain": "IIIB", "cells": "MT-4", "method": "ELISA / antigen", "value": "0.04 µM"}
{"compound": "O=C(O)CCCC#CC#CCCCCCCCCCCCCCc1ccco1", "strain": "MC99 deltaTAT/REV", "cells": "1A2", "method": "syncytia / β-galactosidase", "value": "8.9 µg/mL"}
{"compound": "C=C1COC(c2oc(OC)c(C)c(=O)c2C)C1", "strain": "LAI", "cells": "PBMC + LC5-RIC", "method": "fluorescence", "value": ">10 µM"}